Reference: PubChem BioAssay AID1259414 (Drosophila RNAi Screening Center, 2018)
In all, the deposit lists about 24,000 reagents; this is a random part of those with a known target gene and a result. Over the whole deposit, about 1,210 (5%) were called active. 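Inactive calls also include excluded dsRNAs with several or no targets, genes unexpressed in JW18, and well A1, regardless of score.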 Unmarked entries are inactive. A plus sign joins genes that one reagent is predicted to hit.

Purpose: 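Genome-wide screen for host control of endosymbiont load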 (primary screen)
Cell system: Drosophila JW18 cells infected with Wolbachia
Reagents: long dsRNA against Drosophila genes, 0.25 µg dsRNA per well of a 384-well plate
Time to read-out: 5 days
Treatment: cells persistently infected with Wolbachia before knock-down; no added drug
Detection: 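Automated imaging of bacterial rRNA staining divided by host cell count, reported as plate-normalised robust z-score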
Reading the numbers: Wolbachia per cell robust z: higher = more Wolbachia per host cell than the plate typical
Call rule: 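Active if absolute robust z reaches 1.5 in two or more of three replicates, leaving out multi- or no-target dsRNAs, genes unexpressed in JW18 and A1 wells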

ohgt [DRSC15521] → Wolbachia per cell robust z, rep 1: 0.0772; Wolbachia per cell robust z, rep 2: -2.73; Wolbachia per cell robust z, rep 3: 0.225
ohgt [DRSC30024] → Wolbachia per cell robust z, rep 1: -0.303; Wolbachia per cell robust z, rep 2: 0.39; Wolbachia per cell robust z, rep 3: -0.0177
Spt5 [DRSC07556] → Wolbachia per cell robust z, rep 1: 0.227; Wolbachia per cell robust z, rep 2: 1.24; Wolbachia per cell robust z, rep 3: 0.555
Xrcc2 [DRSC19984] → Wolbachia per cell robust z, rep 1: -0.365; Wolbachia per cell robust z, rep 2: -1.94; Wolbachia per cell robust z, rep 3: -0.822
Xrcc2 [DRSC29513] → Wolbachia per cell robust z, rep 1: -0.502; Wolbachia per cell robust z, rep 2: -3.94; Wolbachia per cell robust z, rep 3: -1.08
tutl [DRSC00441] → Wolbachia per cell robust z, rep 1: 0.829; Wolbachia per cell robust z, rep 2: -0.495; Wolbachia per cell robust z, rep 3: 0.749
tutl [DRSC00442] → Wolbachia per cell robust z, rep 1: 0.648; Wolbachia per cell robust z, rep 2: 0.238; Wolbachia per cell robust z, rep 3: -0.466
tutl [DRSC00443] → Wolbachia per cell robust z, rep 1: -3.65; Wolbachia per cell robust z, rep 2: 0.793; Wolbachia per cell robust z, rep 3: -0.23
tutl [DRSC27605] → Wolbachia per cell robust z, rep 1: -0.393; Wolbachia per cell robust z, rep 2: -1.02; Wolbachia per cell robust z, rep 3: 0.646
CG5003 [DRSC15694] → Wolbachia per cell robust z, rep 1: 3.01; Wolbachia per cell robust z, rep 2: -0.392; Wolbachia per cell robust z, rep 3: -0.957
CG5003 [DRSC26689] → Wolbachia per cell robust z, rep 1: 1.22; Wolbachia per cell robust z, rep 2: 0.27; Wolbachia per cell robust z, rep 3: -0.117
osa [DRSC17022] → Wolbachia per cell robust z, rep 1: 2.64 (active); Wolbachia per cell robust z, rep 2: 1.07; Wolbachia per cell robust z, rep 3: 2.38
osa [DRSC40851] → Wolbachia per cell robust z, rep 1: -0.489; Wolbachia per cell robust z, rep 2: -0.14; Wolbachia per cell robust z, rep 3: -0.267
CG10311 [DRSC14228] → Wolbachia per cell robust z, rep 1: 0.207; Wolbachia per cell robust z, rep 2: -0.792; Wolbachia per cell robust z, rep 3: -3.67
loaf [DRSC09130] → Wolbachia per cell robust z, rep 1: 0.862; Wolbachia per cell robust z, rep 2: -5.94; Wolbachia per cell robust z, rep 3: 0.023
NitFhit [DRSC08680] → Wolbachia per cell robust z, rep 1: -0.972; Wolbachia per cell robust z, rep 2: -0.897; Wolbachia per cell robust z, rep 3: -2.82
NitFhit [DRSC28018] → Wolbachia per cell robust z, rep 1: -0.983; Wolbachia per cell robust z, rep 2: 0.243; Wolbachia per cell robust z, rep 3: -2.14
NitFhit [DRSC41565] → Wolbachia per cell robust z, rep 1: -1.19; Wolbachia per cell robust z, rep 2: -0.507; Wolbachia per cell robust z, rep 3: -2.91
CG14518 [DRSC14870] → Wolbachia per cell robust z, rep 1: -4.7; Wolbachia per cell robust z, rep 2: -0.878; Wolbachia per cell robust z, rep 3: -6.14
CG14518 [DRSC27614] → Wolbachia per cell robust z, rep 1: 0.408; Wolbachia per cell robust z, rep 2: 0.188; Wolbachia per cell robust z, rep 3: -0.382
CG14717 [DRSC14940] → Wolbachia per cell robust z, rep 1: 0.726; Wolbachia per cell robust z, rep 2: 1.82; Wolbachia per cell robust z, rep 3: 0.428
PyK [DRSC16806] → Wolbachia per cell robust z, rep 1: -1.33; Wolbachia per cell robust z, rep 2: -0.15; Wolbachia per cell robust z, rep 3: -0.186
PyK [DRSC27033] → Wolbachia per cell robust z, rep 1: -0.0171; Wolbachia per cell robust z, rep 2: -0.169; Wolbachia per cell robust z, rep 3: 0.923
srl [DRSC12340] → Wolbachia per cell robust z, rep 1: -0.386; Wolbachia per cell robust z, rep 2: 0.325; Wolbachia per cell robust z, rep 3: -1.15
srl [DRSC29561] → Wolbachia per cell robust z, rep 1: 1.13; Wolbachia per cell robust z, rep 2: 0.128; Wolbachia per cell robust z, rep 3: 0.817
Mocs2A + Mocs2B + CR42201 [DRSC38759] → Wolbachia per cell robust z, rep 1: -0.821; Wolbachia per cell robust z, rep 2: -2.81; Wolbachia per cell robust z, rep 3: 0.989
CG4004 [DRSC19791] → Wolbachia per cell robust z, rep 1: -0.84; Wolbachia per cell robust z, rep 2: -0.285; Wolbachia per cell robust z, rep 3: 1.03
CG4004 [DRSC19882] → Wolbachia per cell robust z, rep 1: -0.291; Wolbachia per cell robust z, rep 2: -0.915; Wolbachia per cell robust z, rep 3: -0.974
CG4004 [DRSC26904] → Wolbachia per cell robust z, rep 1: -0.324; Wolbachia per cell robust z, rep 2: -1.34; Wolbachia per cell robust z, rep 3: -1.45
GILT3 [DRSC14672] → Wolbachia per cell robust z, rep 1: -2.66; Wolbachia per cell robust z, rep 2: -2.29; Wolbachia per cell robust z, rep 3: 0.248

Already shown: 2 of the entries above.
NitFhit [DRSC28018] → Wolbachia per cell robust z, rep 1: -0.983; Wolbachia per cell robust z, rep 2: 0.243; Wolbachia per cell robust z, rep 3: -2.14
NitFhit [DRSC41565] → Wolbachia per cell robust z, rep 1: -1.19; Wolbachia per cell robust z, rep 2: -0.507; Wolbachia per cell robust z, rep 3: -2.91
